Pooled drug test results. Numbers come from NIAID ChemDB, via PubChem.

Common to all: whole-cell or culture tests; organism: Candida albicans; read-out: MIC

Blank or dashed fields: not listed here. Neighbouring rows are from separate reports.

SMILES | strain or isolate | read by | result
CCC(C)n1ncn(-c2ccc(N3CCN(c4ccc(OC[C@H]5CO[C@](Cn6cncn6)(c6ccc(Cl)cc6Cl)O5)cc4)CC3)cc2)c1=O | TIMM1756 | - | 0.03 µg/mL
CC1=C2C3=C4[C@@](C)(C(=O)[C@]2(O)OC1=O)[C@@H]1C[C@@H]1[C@@]4(O)C[C@@H]1[C@]32OC(=O)C3=C2C[C@H]2[C@](O)(COC(=O)/C(C)=C/COC(=O)CCC(=O)OC3)[C@H]3C[C@H]3[C@]12C | ATCC 90028 | broth dilution | 8 µg/mL
C=C[C@@]1(C)C=C2CC[C@@H]3[C@](C)(CCC[C@@]3(C)C(=O)O)[C@H]2CC1 | - | - | >100 µg/mL
CC1=C2C[C@@H]3[C@](C)(CCC[C@@]3(C)O)C[C@]2(O)OC1=O | ATCC 90028 | broth dilution | 16 µg/mL
CC(n1ncn(-c2ccc(Cn3nccn3)cc2)c1=O)C(O)(Cn1cncn1)c1ccc(F)cc1F | TA | - | 0.03 µg/mL
O=Cc1cc(-c2ccc(F)cc2)no1 | - | - | 50 µg/mL
Cc1nn(-c2ccccc2)c2c1C(c1ccccc1)c1c(nc(=O)[nH]c1N)O2 | MTCC 227 | - | 250 µg/mL
CC(/C=C/C=C(\C)C(O)C(C)C(=O)O[C@H]1C[C@@H](C)C=C2C=C[C@@](C)(O)[C@](C)(C(=O)CCO)[C@H]21)=C\C=C\C(=O)O | 579A | - | 50 µg/mL
C=C[C@]1(C)CCC2C(=CCC3[C@]2(C)CCC[C@@]3(C)C(=O)O)C1 | - | - | >100 µg/mL
N#CC(C(=S)NCc1ccc(Cl)cc1)c1nc2ccccc2o1 | - | - | <100 µg/mL
COC(=O)/C(C)=C1\C(=O)[C@H](O)[C@]2(C)C3=C1[C@]14OC(=O)C5=C1C[C@H]1[C@](O)(COC(=O)/C(C)=C/COC(=O)CCC(=O)OC5)[C@H]5C[C@H]5[C@]1(C)[C@@H]4C[C@]3(O)[C@H]1C[C@H]12 | ATCC 90028 | broth dilution | 4 µg/mL
CC(C)N=C(N)c1ccc2nc(-c3ccc4c(c3)Cc3cc(-c5nc6ccc(C(N)=NC(C)C)cc6[nH]5)ccc3-4)[nH]c2c1 | A39 | - | 0.78 µg/mL
CCOC(=O)c1cc(C#N)c2oc3ccccc3n2c1=O | - | - | >200 µg/mL
Cc1nn(-c2ccccc2)c2c1C(c1ccccc1Cl)c1c(nc(=S)[nH]c1N)O2 | MTCC 227 | - | 500 µg/mL
O=Cc1cc(-c2ccc(Cl)cc2Cl)no1 | - | - | 50 µg/mL
CCCCCCNC(=O)[C@H]1[C@@H]2C[C@@H](OC3O[C@H](C)[C@@H](O)[C@H](N(CCCN)CCCN)[C@@H]3O)/C=C/C=C/C=C/C=C/C=C/C=C/C=C/[C@H](C)[C@@H](O)[C@@H](C)[C@H](C)OC(=O)C[C@H](O)C[C@H](O)CC[C@@H](O)[C@H](O)C[C@H](O)C[C@](O)(C[C@@H]1O)O2 | CAF2-1 | - | 0.5 µM
Cc1nc(-c2ccc(-n3ccn(C(C)C(O)(Cn4cncn4)c4ccc(F)cc4F)c3=O)cc2)cs1 | TA | - | 0.004 µg/mL
O=C(NCCCCCCNC(=O)NNC(=O)c1ccccc1)NNC(=O)c1ccccc1 | ATCC 90028 | - | 7.5 µg/mL
CC(n1ccn(-c2ccc(Cn3ccnn3)cc2)c1=O)C(O)(Cn1cncn1)c1ccc(F)cc1F | TA | - | 0.03 µg/mL
N#CC1=C(N)N2C(=C(C#N)C1c1ccc(Cl)cc1)Oc1ccccc12 | - | - | >200 µg/mL
CC(N1CCN(c2ccc(-n3cnnn3)cc2)C1=O)C(O)(Cn1cncn1)c1ccc(F)cc1F | TA | - | 0.002 µg/mL
O=Cc1cc(-c2ccccc2Cl)no1 | - | - | 50 µg/mL
Cc1coc2c1C(=O)[C@@H]1[C@](C)([C@H](O)CC[C@@]1(C)O)[C@@H]2O | ATCC 90028 | broth dilution | 16 µg/mL
C[C@@H]1[C@H](O)[C@@H](C)/C=C/C=C/C=C/C=C/C=C/C=C/C=C/[C@H](OC2O[C@H](C)[C@@H](O)[C@H](N(CCN)CCN)[C@@H]2O)C[C@@H]2O[C@](O)(C[C@@H](O)C[C@@H](O)[C@H](O)CC[C@@H](O)C[C@@H](O)CC(=O)O[C@H]1C)C[C@H](O)[C@H]2C(=O)O | CAF2-1 | - | 0.1 µM
CCCCNC(=S)C(C#N)c1nc2ccccc2o1 | - | - | >200 µg/mL
O=Cc1cc(-c2ccc(Cl)cc2)no1 | - | - | 25 µg/mL
C[C@H](N1CCN(c2ccc(-n3cccn3)cc2)C1=O)[C@@](O)(Cn1cncn1)c1ccc(F)cc1F | TIMM1850 | - | 0.004 µg/mL
Cc1nn(-c2ccccc2)c2c1C(c1cccc([N+](=O)[O-])c1)c1c(nc(=S)[nH]c1N)O2 | MTCC 227 | - | 1000 µg/mL
N#C/C(=C\c1ccc2c(c1)OCO2)c1nc2ccccc2o1 | - | - | >200 µg/mL
C[C@@H]1[C@H](O)[C@@H](C)/C=C/C=C/C=C/C=C/C=C/C=C/C=C/[C@H](OC2O[C@H](C)[C@@H](O)[C@H](N(CCCN)CCCN)[C@@H]2O)C[C@@H]2O[C@](O)(C[C@@H](O)C[C@@H](O)[C@H](O)CC[C@@H](O)C[C@@H](O)CC(=O)O[C@H]1C)C[C@H](O)[C@H]2C(=O)O | DSY296 | - | 0.1 µM
COc1ccc(C2C(C#N)=C(N)Oc3c2c(C)nn3-c2ccccc2)cc1 | MTCC 227 | - | 200 µg/mL
Cn1cccc1-c1n[nH]c(=O)n1CCCCCCn1c(-c2cccn2C)n[nH]c1=O | - | - | 7.5 µg/mL
N#C/C(=C1\SC(=O)CN1c1ccccc1)c1nc2ccccc2o1 | - | - | >200 µg/mL
Cc1ccc(C(C)C)cc1O | M1 | - | 0.16 µg/mL
CC(=O)NNC(=O)NCCCCCCNC(=O)NNC(C)=O | - | - | 7.5 µg/mL
CCC(C)n1ncn(-c2ccc(N3CCN(c4ccc(OC[C@H]5CO[C@](Cn6cncn6)(c6ccc(Cl)cc6Cl)O5)cc4)CC3)cc2)c1=O | A28200 | - | 0.015 µg/mL

Repeating the first 3 entries:

{"SMILES": "CCC(C)n1ncn(-c2ccc(N3CCN(c4ccc(OC[C@H]5CO[C@](Cn6cncn6)(c6ccc(Cl)cc6Cl)O5)cc4)CC3)cc2)c1=O", "strain or isolate": "TIMM1756", "result": "0.03 µg/mL"}
{"SMILES": "CC1=C2C3=C4[C@@](C)(C(=O)[C@]2(O)OC1=O)[C@@H]1C[C@@H]1[C@@]4(O)C[C@@H]1[C@]32OC(=O)C3=C2C[C@H]2[C@](O)(COC(=O)/C(C)=C/COC(=O)CCC(=O)OC3)[C@H]3C[C@H]3[C@]12C", "strain or isolate": "ATCC 90028", "read by": "broth dilution", "result": "8 µg/mL"}
{"SMILES": "C=C[C@@]1(C)C=C2CC[C@@H]3[C@](C)(CCC[C@@]3(C)C(=O)O)[C@H]2CC1", "result": ">100 µg/mL"}